Compound potency records, mixed from different reports. Data source: NIAID ChemDB in PubChem.

Common to all: growth or infection tests; agent: Mycobacterium avium

Rows are shuffled and stem from different studies. Blank or dashed fields: not listed here. A number after MIC or MFC names an inhibition level or a share of isolates.

| smiles | read-out | conditions | read by | strain or isolate | result |
|---|---|---|---|---|---|
| NC[C@H]1O[C@H](O[C@H]2[C@H](O)[C@@H](O[C@H]3O[C@H](CO)[C@@H](O)[C@H](N)[C@H]3O)[C@H](N)C[C@@H]2N)[C@H](O)[C@@H](O)[C@@H]1O | MIC | - | - | Strain #2 | 0.39 µg/mL |
| COc1ccc(-n2nnnc2SSc2nnnn2-c2ccc(OC)cc2)cc1 | MIC | - | - | 80/72 | >1000 µM |
| Nc1ccc(Cl)cc1C(=O)Nc1ccc(F)cc1 | MIC | - | - | MY330/88 | 125 µM |
| CCCCCCOc1cccc(NC(=O)OCCN(C)C)c1 | MIC | - | - | MY330/88 | 16 µM |
| Cc1ccc(C(=O)CC(N/N=C(\N)c2ccccn2)c2cccnc2)cc1 | MIC | - | - | 485 | 16 µg/mL |
| c1ccc(/C(Cn2ccnc2)=N\OCc2ccc(-c3ccccc3)cc2)cc1 | MIC | - | - | 103317 | 21.7 µM |
| N/C(=N\N=C\c1cc(Br)ccc1O)SCc1ccc(C(F)(F)F)cc1 | MIC | 14 d | broth dilution | ATCC 25291 | 32 µM |
| Nc1ccc(Cl)cc1C(=O)Nc1ccc(Br)cc1 | MIC | - | - | MY330/88 | 31 µM |
| C[C@@H](NC(=O)OCc1ccccc1)c1cnc(-c2ccccc2)[nH]1 | MIC | 14 d | - | MY330/88 | 250 µM |
| Cc1ccc(-n2nnnc2SSc2nnnn2-c2ccc(C)cc2)cc1 | MIC | - | - | 80/72 | >1000 µM |
| Cc1c(CN2CCN(C)CC2)cc(-c2cccc3ccccc23)n1-c1ccccc1 | MIC | - | - | - | >16 µg/mL |
| CN1CCN(c2cccc(NCc3ccc(-c4ccccc4)cc3)c2)CC1 | MIC | - | - | 103317 | 21.6 µM |
| COc1ccc(C(=O)Nn2c(C)nc3scc(-c4ccco4)c3c2=O)cc1 | MIC | - | - | CNCTC MY330/88 | 8 µM |
| COc1cc(/C=N/N=C(\N)c2ccccn2)cc(OC)c1OC | MIC | - | - | - | 256 µg/mL |
| Cc1c(CN2CCSCC2)cc(-c2ccc(F)cc2)n1-c1ccc(Cl)cc1 | MIC | - | - | 103317 | >16 µg/mL |
| N/C(=N\NC(=O)c1ccc(Cl)cc1Cl)SCc1cccc(Cl)c1 | MIC | - | - | ATCC 19421 | >100 µg/mL |
| Cc1nc2scc(-c3ccco3)c2c(=O)n1/N=C/c1ccc(Cl)cc1 | MIC | - | - | CNCTC MY330/88 | 10 µM |
| C=CCS/C(N)=N/NC(=O)c1ccc(Cl)cc1Cl | MIC | - | - | ATCC 19421 | >100 µg/mL |
| CC[C@H]1OC(=O)[C@H](C)[C@@H](O[C@H]2C[C@@](C)(OC)[C@@H](O)[C@H](C)O2)[C@H](C)[C@@H](O[C@@H]2O[C@H](C)C[C@H](N(C)C)[C@H]2O)[C@](C)(OC)C[C@@H](C)C(=O)[C@H](C)[C@@H](O)[C@]1(C)O | MBC | - | - | 3011 | 64 µg/mL |
| CCCSc1ccc(NC(=S)Nc2ccc(OCCC(C)C)cc2)cc1 | MIC | - | - | 724 | 20 µg/mL |
| Cc1nc2scc(-c3ccco3)c2c(=O)n1NC(=O)C1CCCCC1 | MIC | - | - | CNCTC MY330/88 | 88 µM |
| CC(C)CCSc1ccc(NC(=S)Nc2ccc(SCCC(C)C)cc2)cc1 | MIC | - | - | 724 | 2.5 µg/mL |
| Cc1ccc(-n2nnc3ccccc3c2=O)cc1 | MIC | - | - | MY330/88 | 125 µM |
| Cc1ccc(CS/C(N)=N/N=C/c2ccccc2)cc1 | MIC | 14 d | broth dilution | ATCC 25291 | 16 µM |
| CCCSc1ncnc2ccccc12 | MIC | - | - | CNCTC MY80/72 | 250 µM |
| Nc1ccccc1C(=O)Nc1cccc(Cl)c1 | MIC | - | - | MY330/88 | >500 µM |
| NC(=O)c1ncc(C(N)=S)nc1N1CCCCC1 | MIC | - | - | 80/72 | >100 µg/mL |
| Cc1ccc(C(=O)NNC(N)=S)cc1 | MIC | - | - | ATCC 19421 | >100 µg/mL |
| CC(C)CNc1nc(C(N)=S)cnc1C(N)=O | MIC | - | - | 80/72 | >100 µg/mL |
| O=C(NCc1ccccn1)c1cc(F)ccc1O | MIC | 14 d | - | ATCC 25291 | 500 µM |
| CC(=O)Nn1c(C)nc2scc(-c3ccco3)c2c1=O | MIC | - | - | CNCTC MY330/88 | 211 µM |
| Clc1ccc(/C(Cn2ccnc2)=N/OCc2cccc3ccccc23)c(Cl)c1 | MIC | - | - | 103317 | 19.5 µM |
| C[C@@H](NC(=O)OCc1ccccc1)c1cnc(-c2ccc([N+](=O)[O-])cc2)[nH]1 | MIC | 21 d | - | MY330/88 | >125 µM |
| O=C(NCc1cccnc1)c1ccccc1O | MIC | 14 d | - | ATCC 25291 | 500 µM |
| O/N=C(\Cn1ccnc1)c1ccc(Cl)cc1Cl | MIC | - | - | 103317 | 118 µM |
| CCCCOc1cccc(NC(=O)OCCN2CCCCC2)c1 | MIC | - | - | MY330/88 | 125 µM |
| COc1ccc(C(=O)NCc2cccnc2)c(O)c1 | MIC | 21 d | - | ATCC 25291 | 1000 µM |
| Cc1ccc(C(=O)N/N=C(\N)SCc2cccc(Cl)c2)cc1 | MIC | - | - | ATCC 19421 | >100 µg/mL |
| Cc1nc2scc(-c3ccco3)c2c(=O)n1NC(=O)c1ccccc1 | MIC | - | - | CNCTC MY330/88 | 110 µM |
| C=CCS/C(N)=N/NC(=O)c1ccc(C)cc1 | MIC | - | - | ATCC 19421 | >100 µg/mL |
| CCSc1nnnn1-c1ccc(C)c(C)c1 | MIC | - | - | 80/72 | 250 µM |
| Cc1ccc2occ(C=O)c(=O)c2c1 | MIC | - | - | MY330/88 | 1000 µM |
| CC[C@@H](C)[C@H](NC(=O)OCc1ccccc1)c1cnc(-c2ccccc2)[nH]1 | MIC | 21 d | - | MY330/88 | >500 µM |
| CC[C@H]1OC(=O)[C@H](C)C(=O)[C@H](C)[C@@H](O[C@@H]2O[C@H](C)C[C@H](N(C)C)[C@H]2O)[C@](C)(OC)C[C@@H](C)C(=O)[C@H](C)[C@H]2N(CCCCn3cnc(-c4cccnc4)c3)C(=O)O[C@]12C | MIC | - | - | Isolate 1257 | 10 µg/mL |
| N/C(=N\NC(CC(=O)c1ccc(Cl)cc1)c1cccnc1)c1ccccn1 | MIC | - | - | 485 | 80 µg/mL |
| Cc1c(CN2CCN(C)CC2)cc(-c2ccccc2Cl)n1-c1cccc2ccccc12 | MIC | - | - | - | 4 µg/mL |
| Cc1cccc(C(=O)NCc2ccccn2)c1O | MIC | 14 d | - | ATCC 25291 | 125 µM |
| COc1ccc(OC)c(/C=N/N=C(\N)c2ccccn2)c1 | MIC | - | - | - | 256 µg/mL |
| N/C(=N\NC(CC(=O)c1ccc(-c2ccccc2)cc1)c1ccccn1)c1ccccn1 | MIC | - | - | 485 | 32 µg/mL |
| CCCCCCCCOc1cccc(NC(=O)OCC[NH+]2CCCC2)c1 | MIC | - | - | MY330/88 | 16 µM |
| Clc1ccc(CNc2cccc(N3CCSCC3)c2)cc1 | MIC | - | - | 103317 | 25.7 µM |
| O=C(OCc1ccccc1)N1CCC[C@H]1c1cnc(-c2ccccc2)[nH]1 | MIC | 14 d | - | MY330/88 | >250 µM |
| N/C(=N\NC(CC(=O)c1cccc(Cl)c1)c1ccncc1)c1ccccn1 | MIC | - | - | 485 | 8 µg/mL |
| Cc1ccc(-n2nnnc2SC(C)C)cc1C | MIC | - | - | 80/72 | 250 µM |
| CC(C)[C@H](NC(=O)OCc1ccccc1)c1cnc(-c2ccccc2)[nH]1 | MIC | 21 d | - | MY330/88 | >500 µM |
| Cc1nc2scc(-c3ccco3)c2c(=O)n1NC(=O)C1CC1 | MIC | - | - | CNCTC MY330/88 | 89 µM |
| CC(C)CCOc1ccc(NC(=S)Nc2ccc(OCCC(C)C)cc2)cc1 | MIC | - | - | 724 | 2 µg/mL |
| CCCSc1nnnn1-c1ccc(C)c(C)c1 | MIC | - | - | 80/72 | 250 µM |
| Cc1cc(C)c(-n2nnnc2SSc2nnnn2-c2c(C)cc(C)cc2C)c(C)c1 | MIC | - | - | 80/72 | >1000 µM |
| Cc1ccc(/C=N/N=C(/N)c2ccccn2)c(C)c1 | MIC | - | - | - | 32 µg/mL |
| Cc1c(CN2CCSCC2)cc(-c2ccccc2F)n1-c1cccc2ccccc12 | MIC | - | - | - | 2 µg/mL |
| CO[C@H]1/C=C/O[C@@]2(C)Oc3c(C)c(O)c4c(O)c(cc(O)c4c3C2=O)NC(=O)/C(C)=C\C=C\[C@H](C)[C@H](O)[C@@H](C)[C@@H](O)[C@@H](C)[C@H](OC(C)=O)[C@@H]1C | MIC | - | - | Forlanini | 1 µg/mL |
| c1ccc(-c2ccc(CNc3cccc(-n4ccnc4)c3)cc2)cc1 | MIC | - | - | 103317 | 11.8 µM |
| CCCCCCCCCCCCCCCCNC(=S)NCCCC(=O)OC | MIC | - | - | 724 | 20 µg/mL |
| N/C(=N\N=C\c1cc(Cl)ccc1O)SCc1ccc(F)cc1 | MIC | 14 d | broth dilution | ATCC 25291 | 32 µM |
| N/C(=N/N=C/c1ccccc1Br)c1ccccn1 | MIC | - | - | - | 64 µg/mL |
| C/C=N/n1c(C)nc2scc(-c3ccco3)c2c1=O | MIC | - | - | CNCTC MY330/88 | 62 µM |
| O=C(NCc1ccccc1)c1ccccc1O | MIC | 14 d | - | ATCC 25291 | 125 µM |
| CCCCCCCCCCOc1ccc(NC(=O)OCC[NH+]2CCCC2)cc1 | MIC | - | - | MY330/88 | 16 µM |
| Cc1c(CN2CCSCC2)cc(-c2ccc(F)cc2)n1-c1ccccc1 | MIC | - | - | 103317 | 16 µg/mL |
| CN1CCN(c2ccc(NCc3ccc(Cl)cc3)cc2)CC1 | MIC | - | - | 103317 | 97.8 µM |
| CCCCSc1nnnn1-c1ccc(C)cc1 | MIC | - | - | 80/72 | 125 µM |
| CCSc1ncnc2ccccc12 | MIC | - | - | CNCTC MY80/72 | 500 µM |
| CCCOc1ccccc1NC(=O)OCCN1CCCCCC1 | MIC | - | - | MY330/88 | 250 µM |
| Clc1ccc(/C(Cn2ccnc2)=N/OC/C=C/c2ccccc2)cc1 | MIC | - | - | 103317 | 22.7 µM |
| CCCOc1cccc(NC(=O)OCCN2CCCCCC2)c1 | MIC | - | - | MY330/88 | 125 µM |
| NC(=S)NNC(=O)c1ccc(F)cc1 | MIC | - | - | ATCC 19421 | >100 µg/mL |
| CCCCCCCCCCCCCCCCSc1ncnc2ccccc12 | MIC | - | - | CNCTC MY80/72 | >1000 µM |
| NC(=O)c1ncc(C(N)=S)nc1Nc1ccc(O)cc1 | MIC | - | - | 80/72 | 100 µg/mL |
| CCCCCCSc1ncnc2ccccc12 | MIC | - | - | D 5/93 | 63 µM |
| Cc1nc2scc(-c3ccco3)c2c(=O)n1/N=C/c1ccco1 | MIC | - | - | CNCTC MY330/88 | 62 µM |
| CCC(C)c1ccc(NC(=O)c2cc(Cl)ccc2N)cc1 | MIC | - | - | MY330/88 | 16 µM |
| CCS/C(N)=N\N=C\c1ccc(C(F)(F)F)cc1 | MIC90 | - | - | Clinical isolates | 6.25 µg/mL |
| C=CCSc1ncnc2ccccc12 | MIC | - | - | CNCTC MY66/72 | 250 µM |
| N/C(=N\N=C\c1ccccc1)SCc1ccc(C(F)(F)F)cc1 | MIC | 14 d | broth dilution | ATCC 25291 | 16 µM |
| CS/C(N)=N/NC(=O)c1ccccc1 | MIC | - | - | ATCC 19421 | >100 µg/mL |
| CC(C)c1c(O)cc([C@H](N=C(N)N)C(=O)NCC(=O)O)cc1O | MIC | - | - | Strain 1 | 1.56 µg/mL |
| Cc1c(CN2CCN(C)CC2)cc(-c2ccccc2F)n1-c1ccccc1F | MIC | - | - | - | >16 µg/mL |
| O=Cc1coc2ccc([N+](=O)[O-])cc2c1=O | MIC | - | - | MY330/88 | 500 µM |
| Cc1c(CN2CCSCC2)cc(-c2ccccc2F)n1-c1ccccc1 | MIC | - | - | - | >16 µg/mL |
| Nc1ccccc1C(=O)Nc1cccc(F)c1 | MIC | - | - | MY330/88 | 250 µM |
| CC(C)N=C(N)/N=C(\N)NOCCCOc1cc(Cl)c(Cl)cc1Cl | MIC | - | - | Farino | <0.1 µg/mL |

9 of the rows above, restated:

smiles,read-out,conditions,read by,strain or isolate,result
CCCCSc1nnnn1-c1ccc(C)cc1,MIC,-,-,80/72,125 µM
N/C(=N/N=C/c1ccccc1Br)c1ccccn1,MIC,-,-,-,64 µg/mL
O=C(NCc1ccccc1)c1ccccc1O,MIC,14 d,-,ATCC 25291,125 µM
Cc1nc2scc(-c3ccco3)c2c(=O)n1/N=C/c1ccco1,MIC,-,-,CNCTC MY330/88,62 µM
Nc1ccccc1C(=O)Nc1cccc(F)c1,MIC,-,-,MY330/88,250 µM
Cc1cccc(C(=O)NCc2ccccn2)c1O,MIC,14 d,-,ATCC 25291,125 µM
CCCCCCSc1ncnc2ccccc12,MIC,-,-,D 5/93,63 µM
C/C=N/n1c(C)nc2scc(-c3ccco3)c2c1=O,MIC,-,-,CNCTC MY330/88,62 µM
C=CCS/C(N)=N/NC(=O)c1ccc(C)cc1,MIC,-,-,ATCC 19421,>100 µg/mL